# Library screen at single concentrations

From ChEMBL document CHEMBL3988442, “University of Dundee, Small-Polar-MMV Screening Library” (2021).

Mtb glucose medium: 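Whole-cell growth test on Mycobacterium tuberculosis, read after 3 days in glucose-containing 7H9 medium; the read-out is not stated. Tested at 50 µM. Higher reads as more growth inhibition (inferred: compounds with an IC50 in retests scored well above the rest). Of about 69,000 compounds tested this way, about 760 (1.1%) reached 50% or more in at least one test.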
Mtb cholesterol medium: 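Growth of Mycobacterium tuberculosis over 4 days (cholesterol / DPPC medium with tyloxapol); the read-out is not stated. Compounds at 50 µM. Higher reads as more growth inhibition (inferred: compounds with an IC50 in retests scored well above the rest). Size under these conditions: about 69,000 compounds, about 370 of them at 50% or above in at least one test.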

Results are given as percent effect. How 0% and 100% were set is not recorded. Most values in the screen are low, and negative values occur. Many other results are left out here, so strong results are more common than in the screen. Two or more numbers in one place are separate tests of the same structure; such repeats can differ widely. A dash means the value is not listed here; it may have been measured.

| # | Compound | Mtb glucose medium | Mtb cholesterol medium |
|---|---|---|---|
| 1 | `O=C(CN(Cc1ccccc1)CC1CCOCC1)NC(=O)NC1CC1` | -42.93 | - |
| 2 | `COCCN1CCN(CCS(=O)(=O)C(F)(F)F)CC1C` (centres unmarked) | -14.29 | -0.9735 |
| 3 | `NC(=O)C1CCN(C(=O)NC2CCc3cc(F)ccc32)CC1` (centres unmarked) | -17.57 | - |
| 4 | `COC(=O)N1CCC(Nc2cccc(F)c2C(C)=O)CC1` | 18.68 | 4.569 and 5.06 |
| 5 | `CC(C)C[C@H](N)c1nnc(SCC(N)=O)o1.Cl` | -1.688 and -22.77 | -41.6 |
| 6 | `CCN(CC)S(=O)(=O)c1ccc(CCC(=O)NCc2cc(C)on2)cc1` | - | -14.56 |
| 7 | `CNc1nc2c(s1)C(c1cc(Cl)ccc1F)CC(=O)N2` (centres unmarked) | 27.4 | - |
| 8 | `CCCc1nc(C)cc(N2CCC3(CCC(=O)N(CCCO)C3)CC2)n1` | 0.289 and -4.886 | - |
| 9 | `CCCS(=O)(=O)N1CCN(c2cc(-n3cnc(C)c3C)nc(C)n2)CC1` | -37.82 | - |
| 10 | `CCN(C(c1cccnc1)c1ccc(F)cc1F)S(C)(=O)=O` (centres unmarked) | - | -10.28 |
| 11 | `Cc1noc(C(C)Nc2ccc3oc(=O)[nH]c3c2)n1` (centres unmarked) | - | -16.35 |
| 12 | `Cc1ccc(C(=O)Nc2cn[nH]c2)cn1` | -22.09 | -31.4 |
| 13 | `Cc1c(Br)cccc1CSc1nnc(CO)n1C` | 3.12 and 6.393 | -6.73 |
| 14 | `CC(CNC(=O)c1c[nH]nn1)Oc1cccc(Br)c1` (centres unmarked) | -0.994 | 12.34 and 4.715 |
| 15 | `COc1cccc(Nc2nc(-c3ccncc3)nc3c2CNCC3)c1.Cl` | 7.183 | -29.19 |
| 16 | `COc1cc(Oc2ccc(C#N)cn2)ccc1CN1CCCC1` | 45.31 | 22.68 |
| 17 | `Cc1ccccc1N1CCN(CCS(=O)(=O)c2ccc(Br)cc2)CC1` | 18.42 | - |
| 18 | `CCOC(=O)c1cnn(-c2cc(C)ccn2)c1N` | 11.7 and 30.21 | -14.23 |
| 19 | `CCS(=O)(=O)N(C)CCCNC(=O)c1cc(Cl)cc2cccnc12` | 18.74 | - |
| 20 | `CC(C)Cc1cc(NC(=O)c2ccncc2)n(C)n1` | 38.13 | - |
| 21 | `CCN(CC)CC(=O)NCCc1csc(N2CCCC2)n1` | 5.74 | - |
| 22 | `CCc1ncc(CN(CCc2ccccc2)Cc2cccs2)cn1.O=C(O)CC(O)(CC(=O)O)C(=O)O` | 55.69 | 53.61 and 71.34 |
| 23 | `COc1cc(C(=O)NCCc2cccc(C)c2)on1` | 41.35 | 36.63 |
| 24 | `Cc1cc(Cc2ccccc2)cc(C2CCCNC2)n1` (centres unmarked) | 5.151 | - |
| 25 | `CCOc1ccc(CN2C(=O)CC(C)(C)C2=O)nc1` | 1.027 and -15.76 | - |
| 26 | `O=C(c1cc(C2CC2)on1)N1CCC(Oc2ncccc2Br)CC1` | 34.07 and 52.9 | - |
| 27 | `COCCC(=O)N1CCCC(CCC(=O)NCc2ccccc2F)C1` (centres unmarked) | -1.185 | - |
| 28 | `CN(Cc1nc(Cc2cccc(C(F)(F)F)c2)no1)C1CCCCC1` | 14.71 and 56.49 | - |
| 29 | `CCOC(=O)CCC(=O)N1CCC(CSCc2ccco2)CC1` | 51.46 | - |
| 30 | `Cc1noc(NC(=O)c2ccc(Br)o2)n1` | -1.385 | - |
| 31 | `Cc1cc2[nH]c(O)nc2cc1NCc1ccc(F)cc1` | 22.31 and 59.64 | - |
| 32 | `O=C(Cc1ccc2c(c1)OCCO2)NC1CC1` | -12.15 | -10.5 |
| 33 | `Cc1nn(-c2ccccc2)nc1C(=O)NCC(c1ccco1)N(C)C` (centres unmarked) | -12.97 | -17.33 |
| 34 | `CC1(C)CN(CCC(=O)NCc2cccc(Cl)c2)CC[C@]1(C)O` | -3.261 and 8.159 | - |
| 35 | `CCC(CO)NCc1ccc(-c2ccccc2)o1.Cl` (centres unmarked) | 5.24 and -27.75 | -19.54 |
| 36 | `c1ccc(CCN2CCN(c3ccc4nncn4n3)CC2)nc1` | -2.416 | - |
| 37 | `COc1cc(C(=O)Nc2nc(C)no2)cc(OC)c1Br` | 25.68 | - |
| 38 | `O=C1NCCCCC1NS(=O)(=O)N1CCCCCC1` (centres unmarked) | -0.9086 | - |
| 39 | `CCN1CC2(CC1=O)CN(Cc1cnn(C)c1)CCN(C(C)=O)C2.O=C(O)C(F)(F)F` (centres unmarked) | - | -7.205 and 15.21 |
| 40 | `COc1cc(Cl)c(CN2CCC(C(N)=O)C2)cc1Cl` (centres unmarked) | -1.677 and 5.272 | - |
| 41 | `CC(=O)NCC(=O)N1CCc2nc(C)nc(C)c2CC1` | -20.15 and -2.065 | - |
| 42 | `CCOCc1nnc(NCc2ccsc2)o1` | 60.68 | 36.64 |
| 43 | `O=C(CC1CCc2ccccc21)NC1(C(=O)O)CCOCC1` (centres unmarked) | - | -9.297 |
| 44 | `Cc1nn(C)c2c(NCc3ccc(F)cc3)nc(C3CC3)nc12` | 44.32 | - |
| 45 | `O=C(CNc1cccc(CC(F)(F)F)c1)NCc1ccco1` | 19.75 | 29.11 |
| 46 | `Cc1ccc(C(=O)NCCCNc2ccc(C(F)(F)F)cn2)cc1` | 3.672 | - |
| 47 | `CNS(=O)(=O)c1cccc(C(C)NCc2ccc(F)c(F)c2)c1` (centres unmarked) | -6.634 and -2.316 | - |
| 48 | `Cc1n[nH]c(C)c1CC(=O)N1CC[C@@](C)(O)[C@@H](Cc2ccccc2)C1` | 9.004 | 6.404 |
| 49 | `CSC1(CNC(=O)CCc2ccc(Cl)s2)CCOCC1` | 50.1 | 37.63 |
| 50 | `Cc1nc(-c2nnc[nH]2)sc1C(=O)N1CCCC1CC(C)(C)C` (centres unmarked) | - | -14.01 and -0.9954 |
| 51 | `CC(C(=O)N(C)C)S(=O)(=O)c1cc2c(cc1Cl)OCCO2` (centres unmarked) | 17.87 | - |
| 52 | `CC(C)c1ccc(-c2nnn(CCNS(C)(=O)=O)n2)cc1` | 27.6 | -1.477 |
| 53 | `CCC(C#N)NC(=O)c1ccc(Oc2cccnc2)cc1` (centres unmarked) | -4.825 | 6.678 and -12.03 |
| 54 | `CC(CNS(N)(=O)=O)Oc1cccc(Cl)c1` (centres unmarked) | -7.851 | - |
| 55 | `CCOc1ccc2c(c1)C=C(C(=O)NC(C)Cn1cccn1)CO2` (centres unmarked) | -18.12 | -25.38 |
| 56 | `CCNC(c1ccc(C)cc1)c1cccnc1` (centres unmarked) | 13.7 | - |
| 57 | `Cc1nn(C)cc1S(=O)(=O)NCC(c1ccccc1Cl)N1CCCC1` (centres unmarked) | - | 5.794 and 0.3925 |
| 58 | `Cl.NC1CCc2nc(-c3ccncc3)nc(Nc3cccc(F)c3)c2C1` (centres unmarked) | 44.92 | 20.66 and 12.76 |
| 59 | `Cc1cnn(CCCOc2ccc3c(c2)OCO3)c1` | 37.46 and 27.76 | 35.24 |
| 60 | `Cc1c(C(=O)NC2CCCOC2)nnn1-c1ccccc1` (centres unmarked) | -12.39 | -3.595 |
| 61 | `NC(=O)CC1CCN(C(=O)CCOc2ccc(Cl)cc2)CC1` | -21.63 | - |
| 62 | `O=C(O)C(F)(F)F.O=C(O)C(F)(F)F.O=C1N(Cc2cccnc2)CCC12CCCN(c1ncccn1)C2` (centres unmarked) | - | 77.24 |
| 63 | `Cc1cc(C)nc(N2CCC(C(=O)Nc3ccc(C(C)C)cc3)CC2)n1` | -6.855 | - |
| 64 | `Nc1ncc2c(n1)CN(C1CCCC1)C2=O` | 91.73 | 68.78 |
| 65 | `COc1ccccc1CNC(=O)CNCCn1cc(C)cn1` | 13.62 | - |
| 66 | `CC(CNC(=O)c1cc(-n2cccn2)ccn1)Cn1ccnc1` (centres unmarked) | -15.15 | - |
| 67 | `COCCC1(CNC(=O)Nc2ccc(-n3ccnn3)cc2)CCC1` | 50.67 | - |
| 68 | `O=C(c1ccc(NCc2cccc(F)c2)cc1)N1CCCC1` | - | 50.58 |
| 69 | `CC(=O)N(C)Cc1ccc(OCc2cccs2)cc1` | 27 and 25.71 | 27.4 |
| 70 | `Cc1ccc(N2CC[C@H](OCC3CC3)[C@@H]2Cc2cccnc2)nn1.O=C(O)C(F)(F)F` | - | -10.45 |
| 71 | `CCCc1nc(C(=O)N2CCN(C(=O)OC)CC2)cs1` | -17.59 and 0.4093 | -1.574 |
| 72 | `CCc1ccc(C(=O)NCc2cccc(S(=O)(=O)NC)c2)o1` | 3.138 | 2.955 |
| 73 | `Cc1[nH]/c(=N\C(=O)c2csc(NC3CCCC3)n2)sc1C` | 61.73 | 61.09 |
| 74 | `COc1ccc(CNc2nc(C3CC3)no2)cc1OC` | 2.247 | 4.317 and -4.612 |
| 75 | `Cc1ccc(CC(=O)NCC(O)c2cccc(C(F)(F)F)c2)cn1` (centres unmarked) | -2.239 | - |
| 76 | `Cc1cc(NCCCC(F)(F)F)n2nc(C)cc2n1` | 71.07 | 72.21 |
| 77 | `CS(=O)(=O)NCc1ccc(NC(=O)CC2=CCCCC2)cc1` | - | -11.41 and -15.87 |
| 78 | `CCCc1nc(N2CC[C@@H](c3ccc4c(c3)OCO4)[C@H](O)C2)no1` | - | 51.82 |
| 79 | `c1cc(-c2ccc3c(c2)CCC32CCNCC2)ccn1` | 21.17 and -49.36 | - |
| 80 | `COC(=O)c1ccc(N2CCC(c3ccccc3)CC2)nn1` | 43.84 | 32.88 |
| 81 | `Cc1cnc(CNC(=O)C2CCOc3ccccc3C2)cn1` (centres unmarked) | - | -4.583 |

Some entries from above, unchanged:

{"compound": "O=C(c1ccc(NCc2cccc(F)c2)cc1)N1CCCC1", "Mtb cholesterol medium": 50.58}
{"compound": "Cc1n[nH]c(C)c1CC(=O)N1CC[C@@](C)(O)[C@@H](Cc2ccccc2)C1", "Mtb glucose medium": 9.004, "Mtb cholesterol medium": 6.404}
{"compound": "COCCC1(CNC(=O)Nc2ccc(-n3ccnn3)cc2)CCC1", "Mtb glucose medium": 50.67}
{"compound": "CC(C)Cc1cc(NC(=O)c2ccncc2)n(C)n1", "Mtb glucose medium": 38.13}
{"compound": "CNS(=O)(=O)c1cccc(C(C)NCc2ccc(F)c(F)c2)c1", "stereo": "centres unmarked", "Mtb glucose medium": "-6.634 and -2.316"}
{"compound": "O=C(O)C(F)(F)F.O=C(O)C(F)(F)F.O=C1N(Cc2cccnc2)CCC12CCCN(c1ncccn1)C2", "stereo": "centres unmarked", "Mtb cholesterol medium": 77.24}